A mixed list of measured activities; the numbers were collected in NIAID ChemDB.

Common to all: growth or infection tests; organism: Enterococcus faecium; read-out: MIC

Lines come from different laboratories, so protocols vary.

CC(=O)NC[C@H]1CN(c2ccc(C(=O)Nc3ncn[nH]3)c(F)c2)C(=O)O1 ; strain or isolate: UC12712 (vancomycin-resistant) ; value: 16 µg/mL
CC(=O)NC[C@H]1CN(c2ccc3c(c2)OCc2nccn2-3)C(=O)O1 ; strain or isolate: 27251 ; value: 1 µg/mL
CSc1ccc(N2C[C@H](CNC(C)=O)OC2=O)cc1F ; strain or isolate: UC12712 (vancomycin-resistant) ; value: 8 µg/mL
O=C(CCc1ccccc1)NC[C@H]1CN(c2ccc(N3CCOCC3)c(F)c2)C(=O)O1 ; strain or isolate: UC12712 (vancomycin-resistant) ; value: 16 µg/mL
CC(=O)NC[C@H]1CN(c2ccc(C(=O)N3CCOCC3)c(F)c2)C(=O)O1 ; strain or isolate: UC12712 (vancomycin-resistant) ; value: >64 µg/mL
O=C(/C=C/c1ccc(F)cc1)NC[C@H]1CN(c2ccc(N3CCOCC3)c(F)c2)C(=O)O1 ; strain or isolate: UC12712 (vancomycin-resistant) ; value: 4 µg/mL
Cc1c(NCCO)c(F)cc2c(=O)c(C(=O)O)cn(-c3cc(N)c(F)cc3F)c12 ; strain or isolate: W1418 ; value: >64 µg/mL
O=C(/C=C/c1ccc(Cl)cc1Cl)NC[C@H]1CN(c2ccc(N3CCOCC3)c(F)c2)C(=O)O1 ; strain or isolate: UC12712 (vancomycin-resistant) ; value: 4 µg/mL
CC(=O)NC[C@H]1CN(c2ccc(NS(C)(=O)=O)c(F)c2)C(=O)O1 ; strain or isolate: UC12712 (vancomycin-resistant) ; value: 16 µg/mL
CC(=O)NC[C@H]1CN(c2ccc(C(=O)Nc3nccs3)c(F)c2)C(=O)O1 ; strain or isolate: UC12712 (vancomycin-resistant) ; value: 4 µg/mL
CC(=O)NC[C@H]1CN(c2ccc(N(C)C(=O)c3ccno3)c(F)c2)C(=O)O1 ; strain or isolate: UC12712 (vancomycin-resistant) ; value: 64 µg/mL
Cc1c(NC(C)C)c(F)cc2c(=O)c(C(=O)O)cn(-c3cc(N)c(F)cc3F)c12 ; strain or isolate: ATCC51519 ; value: 16 µg/mL
CSCC(=O)NC[C@H]1CN(c2ccc(C(=O)Nc3ccc(Cl)nc3)c(F)c2)C(=O)O1 ; strain or isolate: UC12712 (vancomycin-resistant) ; value: 4 µg/mL
C=CCCC(=O)NC[C@H]1CN(c2ccc(N3CCOCC3)c(F)c2)C(=O)O1 ; strain or isolate: UC12712 (vancomycin-resistant) ; value: 16 µg/mL
CNc1c(F)cc2c(=O)c(C(=O)O)cn(-c3cc(N)c(F)cc3F)c2c1C ; strain or isolate: W1418 ; value: 32 µg/mL
O=C(/C=C/c1ccc(/C=N/O)cc1)NC[C@H]1CN(c2ccc(N3CCOCC3)c(F)c2)C(=O)O1 ; strain or isolate: UC12712 (vancomycin-resistant) ; value: 4 µg/mL
CC(=O)NC[C@H]1CN(c2ccc(C(=O)Nc3ncc[nH]3)c(F)c2)C(=O)O1 ; strain or isolate: UC12712 (vancomycin-resistant) ; value: 4 µg/mL
CC(=O)NC[C@H]1CN(c2ccc(N(C)C(=O)c3ccc([N+](=O)[O-])o3)c(F)c2)C(=O)O1 ; strain or isolate: UC12712 (vancomycin-resistant) ; value: 8 µg/mL
CC(=O)NC[C@H]1CN(c2ccc(SC3(C)CCOC3=O)c(F)c2)C(=O)O1 ; strain or isolate: UC12712 (vancomycin-resistant) ; value: 4 µg/mL
CC(=O)NC[C@H]1CN(c2ccc(NC(=O)c3ccc(/C=N/O)o3)c(F)c2)C(=O)O1 ; strain or isolate: UC12712 (vancomycin-resistant) ; value: 8 µg/mL
CO/N=C/c1ccc(/C=C/C(=O)NC[C@H]2CN(c3ccc(C(N)=O)c(F)c3)C(=O)O2)cc1 ; strain or isolate: UC12712 (vancomycin-resistant) ; value: 2 µg/mL
COCCSc1ccc(N2C[C@H](CNC(C)=O)OC2=O)cc1F ; strain or isolate: UC12712 (vancomycin-resistant) ; value: 16 µg/mL
CC(=O)NC[C@H]1CN(c2ccc(NC(=O)c3ccc(/C=C/[N+](=O)[O-])o3)c(F)c2)C(=O)O1 ; strain or isolate: UC12712 (vancomycin-resistant) ; value: 16 µg/mL

For reference, 2 entries again:

{"compound": "CC(=O)NC[C@H]1CN(c2ccc(N(C)C(=O)c3ccno3)c(F)c2)C(=O)O1", "strain or isolate": "UC12712 (vancomycin-resistant)", "value": "64 µg/mL"}
{"compound": "O=C(/C=C/c1ccc(F)cc1)NC[C@H]1CN(c2ccc(N3CCOCC3)c(F)c2)C(=O)O1", "strain or isolate": "UC12712 (vancomycin-resistant)", "value": "4 µg/mL"}